From paper PMC2951761 (Biochemistry, 2010)

Target: EF CC activity (Bacillus anthracis, UniProt P40136)
Format: biochemical

Q: Which results are given for MANT-ATP?
A: fold lower potency than MANT-CTP in inhibition of EF CC activity: about 7 fold; Ki (read-out: Ki EF CC activity): 0.58 ± 0.03 µM
